Measurements reported in PubChem BioAssay AID624099 (ICCB-Longwood, 2012)

Test: 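Human genes that papillomavirus E2 requires to repress the HPV18 LCR promoter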 (primary screen)
Cell system: human C33A cervical carcinoma cells (HPV-negative) stably expressing BPV1 E2 and an HPV18 LCR luciferase reporter
Knock-down reagent: siRNA pool against human genes, 40 nM
Timing: 72 h
Read-out: 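HPV18 LCR reporter light per well, converted to plate-wise z-scores that exclude control wells, and averaged over triplicate plates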
Reading the numbers: mean z-score and z-score: higher = stronger reporter signal, weaker E2 silencing
Call rule: 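Mean z ≥ 2 together with z ≥ 2 in two or more of the three replicates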
In all, the deposit lists about 21,000 reagents; below is a part drawn at random. Of all reagents, 497 (2.4%) got an active call. 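Higher z means weaker E2 silencing; only reporter increases were scored, and knock-downs that hurt cell survival may mask genuine repressor factors.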 Entries without a mark were called inactive. Reagents against one gene are numbered here. No sequences are given here.

| mean z-score | z-score, replicate A | z-score, replicate B | z-score, replicate C | target gene | reagent no. |
| --- | --- | --- | --- | --- | --- |
| -0.98 | -0.85 | -1.15 | -0.95 | ANKRD34C | 1 |
| -0.61 | -0.65 | -0.33 | -0.84 | TMEM132D | 1 |
| -0.71 | -0.73 | -0.74 | -0.67 | OR8B3 | 1 |
| 0.22 | 0.24 | 0.15 | 0.26 | PAFAH1B2 | 1 |
| 1.82 | 1.51 | 1.98 | 1.97 | LOC388847 (retired record) | 1 |
| -0.91 | -0.99 | -0.72 | -1.02 | COMMD8 | 1 |
| -0.83 | -0.72 | -0.99 | -0.8 | EPC2 | 1 |
| -0.9 | -1.09 | -1.15 | -0.47 | OLFM2 | 1 |
| -1.45 | -1.15 | -1.46 | -1.72 | MYH6 | 1 |
| -1.15 | -0.96 | -0.85 | -1.63 | YY1 | 1 |
| -1.27 | -1.41 | -1.15 | -1.25 | PRSS57 | 1 |
| -0.15 | 0.28 | 0.07 | -0.8 | PRR5L | 1 |
| 0.88 | 0.68 | 0.78 | 1.18 | ADCYAP1R1 | 1 |
| 0.18 | 0.25 | 0.02 | 0.26 | MAP3K5 | 1 |
| 0.7 | 0.74 | 1.11 | 0.25 | TTC8 | 1 |
| -0.79 | -0.67 | -0.93 | -0.78 | CTSF | 1 |
| -1.1 | -1.05 | -1.15 | -1.11 | WBP4 | 1 |
| -0.43 | -0.52 | -0.32 | -0.43 | KDELR2 | 1 |
| -0.89 | -1.11 | -0.81 | -0.76 | PLCG2 | 1 |
| 1.03 | 1.12 | 1.14 | 0.84 | ARHGEF3 | 1 |
| 0.11 | -0.08 | 0.09 | 0.31 | KPNA1 | 1 |
| 0.3 | 0.12 | -0.04 | 0.83 | RFWD3 | 1 |
| 0.24 | 0.48 | 0.37 | -0.13 | MAGEB6B | 1 |
| 1.25 | 1.33 | 1.41 | 1.03 | DRICH1 | 1 |
| -2 | -2.09 | -1.97 | -1.94 | TMEM120B | 1 |
| 0.27 | 0.22 | 0.19 | 0.41 | MGC34919 (retired record) | 1 |
| -0.08 | -0.14 | -0.07 | -0.04 | CRIPTO | 1 |
| -1.62 | -1.4 | -1.54 | -1.93 | PTPN23 | 1 |
| 1.24 | 1.3 | 1.25 | 1.17 | KRT8 | 1 |
| 1.37 | 1.53 | 1.2 | 1.38 | STT3B | 1 |
| -1.67 | -1.89 | -1.71 | -1.42 | RMC1 | 1 |
| 2.88 (active) | 3.14 | 2.67 | 2.81 | FAT2 | 1 |
| -0.68 | -0.6 | -0.73 | -0.71 | NAP1L4 | 1 |
| -0.53 | -0.6 | -0.66 | -0.33 | KDM4E | 1 |
| -0.92 | -0.94 | -0.79 | -1.05 | C1orf167 | 1 |
| 0.45 | 0.43 | 0.66 | 0.27 | SRPRA | 1 |
| -0.22 | -0.27 | -0.31 | -0.08 | KLHL15 | 1 |
| -0.26 | -0.49 | -0.25 | -0.03 | FIZ1 | 1 |
| -1.21 | -1.43 | -0.91 | -1.3 | LINC02946 | 1 |
| -0.2 | 0 | -0.41 | -0.17 | MTARC1 | 1 |
| -0.19 | -0.49 | -0.09 | 0.02 | LOC389331 (retired record) | 1 |
| 0.88 | 0.92 | 0.8 | 0.93 | SSC4D | 1 |
| -0.21 | 0 | -0.56 | -0.08 | CNOT12 | 1 |
| 0.01 | -0.02 | 0.21 | -0.17 | IGKV1OR2-118 | 1 |
| -0.86 | -1.03 | -0.73 | -0.81 | ARHGAP45 | 1 |
| 0.16 | 0.21 | 0.02 | 0.24 | STKLD1 | 1 |
| 1 | 1.35 | 0.75 | 0.92 | CDR2L | 1 |
| 0.69 | 0.57 | 0.58 | 0.93 | RBMY1A1 | 1 |
| -1.22 | -1.27 | -1.1 | -1.3 | DKFZp686M1136 (retired record) | 1 |
| 0.48 | 0.67 | 0.45 | 0.31 | VWA5A | 1 |
| -0.14 | -0.02 | -0.34 | -0.07 | SUSD4 | 1 |
| 1.14 | 1.23 | 1.16 | 1.02 | SUSD4 | 2 |
| 1.91 | 2.06 | 2.05 | 1.61 | APOLD1 | 1 |
| 0.82 | 0.99 | 0.56 | 0.93 | CLDN17 | 1 |
| -0.28 | -0.06 | -0.34 | -0.43 | CLCA2 | 1 |
| 0.58 | 0.34 | 0.8 | 0.61 | MRPS25 | 1 |
| -1.33 | -1.75 | -1.26 | -1 | SLC38A11 | 1 |
